# Target: R3N_2D3
# Test: ELISA
binder,measurement,value
soluble E80 protein of DENV-1 (domain or fragment) not shown,Kd,0.037 nM

# — publication PMC11320570 (2024)
